The experiment deals with TRAIL-R1-Fc (human TRAIL-R1 ectodomain Fc fusion) (human, UniProt O00220 24-239). The experiment in a line: SPR. A general note: Surface plasmon resonance follows binding to a sensor surface in real time, without labels.

Broadly, the Kd is the concentration at which binding is half-saturated. Low readings indicate higher affinity, high ones lower affinity.

B1: UL141 (protein)
chain: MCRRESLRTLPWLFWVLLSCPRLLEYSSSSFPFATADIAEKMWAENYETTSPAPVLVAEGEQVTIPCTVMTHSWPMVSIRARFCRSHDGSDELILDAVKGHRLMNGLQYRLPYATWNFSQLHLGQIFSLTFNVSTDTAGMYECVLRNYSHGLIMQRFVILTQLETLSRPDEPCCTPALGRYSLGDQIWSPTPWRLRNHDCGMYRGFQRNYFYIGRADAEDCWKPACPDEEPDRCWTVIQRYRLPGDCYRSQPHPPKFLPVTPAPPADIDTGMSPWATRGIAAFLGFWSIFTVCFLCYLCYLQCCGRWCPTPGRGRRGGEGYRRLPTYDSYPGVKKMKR
B1 displayed a Kd of 2.33 µM.

(Values after US20170088600A1 (published 2017).)
